Experimental data from patent US20070161078A1 (ARBOR VITA, published 2007).

Legend:
Assay in all cases: G assay (ELISA), AVC database
DLG2 d1 = target: T1, DLG2 d1 (human, UniProt Q15700 92-189)
T1 construct: domain: PDZ d1; also called DLG2 (PDZ #1)

Lim Mystique d1 = target: T2, Lim Mystique d1 (human, UniProt Q96JY6 1-89)
T2 construct: domain: PDZ d1; also called Lym Mystique (PDZ #1)
T2 sequence (looked up): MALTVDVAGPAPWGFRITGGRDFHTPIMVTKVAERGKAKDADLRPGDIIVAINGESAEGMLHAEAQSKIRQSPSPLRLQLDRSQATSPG

KIAA1284 d1 = target: T3, KIAA1284 d1 (human, UniProt Q9ULD6 179-268)
T3 construct: domain: PDZ d1
T3 sequence (looked up): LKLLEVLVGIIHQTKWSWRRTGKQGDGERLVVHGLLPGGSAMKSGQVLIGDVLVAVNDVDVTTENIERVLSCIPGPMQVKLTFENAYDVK

GORASP d1 = target: T4, GORASP d1 (human, UniProt Q9BQQ3 1-108)
T4 construct: domain: PDZ d1; also called GoRasp1 d1

Measured: binding result

KKKKQPGNSTKESESTNSVRLML (also called 1820) [TRPM7 (printed as 23-mer KKKKQPG...)]
binds: all assays above
